Results reported in patent US9776963B2, “Small molecule CD4 mimetics and uses thereof” (priority 2008, dated 2017).

Target: radiolabeled S375W HIVYU2 gp120 binding to Cf2Th-CCR5 cells (Human immunodeficiency virus type 1 group M subtype B, UniProt P35961, S370W)
Assay type: cell-based

With `COc1ccnc2[nH]cc(C(=O)C(=O)N3CCN(C(=O)c4ccccc4)C[C@H]3C)c12` [BMS-806] the “enhancement of gp120 binding to CCR5+ cells (in words)” value was “did not enhance the binding”.
